# Percent effect of library compounds

Values are the deposited “Percent Effect”, in %.
The record does not define 0% and 100%; most values in the screen are far below 50% and negative numbers occur (in some assays of this library far below -100).
Many other results are left out here, so strong results are more common than in the screen.
A dash means the value is not listed here; it may have been measured.

Mtb cholesterol medium: 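Whole-cell growth test on Mycobacterium tuberculosis, read after 4 days in a medium based on cholesterol and the lipid DPPC; the read-out is not stated. Compounds at 500 µM. Higher reads as more growth inhibition (inferred: compounds with an IC50 in retests scored well above the rest). Size under these conditions: about 18,000 compounds, about 900 of them at 50% or above in at least one test.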
Mtb glucose medium: 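Phenotypic screen: M. tuberculosis growth, glucose 7H9 medium, 3 days; the read-out is not stated. Concentration: 500 µM. The record gives no direction; compounds that gave an IC50 in retests scored well above the rest, so higher reads as more growth inhibition. Size under these conditions: about 18,000 compounds, about 1,400 of them at 50% or above in at least one test.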

SMILES,Mtb cholesterol medium,Mtb glucose medium
CN(CCN)CC1CCCOC1 (centres unmarked),-,4.23%
CC(C)Oc1cc(Br)ccc1C(=O)N(C)CC(N)=O,-,19.53%
CCC[C@H]1CN(CCCO)C[C@@H]1NC(=O)c1cnn[nH]1,-1.593%,-
CSCC(=O)NCCc1noc(C(F)(F)F)n1,6.314%,-
CC(C)(C)OC(=O)N1CCOC(CN)C1 (centres unmarked),-,9.725%
Cc1nnc(NC(=O)c2ccc(C#N)cc2)s1,-,6.038%
CC(C)C(C)(C#N)NC(=O)CSc1nncn1C (centres unmarked),3.044%,-
CCCn1cc(CNC(=O)c2ccc(=O)[nH]c2)cn1,-,-7.975%
Cc1ccc(C)c(S(N)(=O)=O)c1,-,18.97%
CCc1ccccc1OCCN1CCOCC(O)C1 (centres unmarked),-,18.55%
c1ccc2[nH]c(NCCOCC3CCCO3)nc2c1 (centres unmarked),12.43%,-
COc1ccc(C(=O)Nc2cnn(C)c2)cc1,-0.3016%,21.23%
O=C(NCC1CCCO1)c1cccc2cccnc12 (centres unmarked),-,-11.07%
CCC(C)NCC(=O)OC (centres unmarked),-,-8.79%
O=C(Cn1c(=O)[nH]c(=O)c2ccccc21)NC1CC1,-,-8.597%
Cc1c(CNC(=O)COc2ccccc2)cnn1C,19.59%,32.77%
Cn1cnc(S(=O)(=O)NC2CCCCNC2=O)c1Cl (centres unmarked),-,14.5%
Cc1ccsc1C(=O)NCc1ccnc(N(C)C)c1,34.4%,42.41%
COc1cccc(C(=O)Nc2ccnn2C(C)C)c1,56.04%,53.41%
C=C(C)CS(=O)(=O)NC1CCN(c2ccccn2)C1 (centres unmarked),-,47.85%
CCCn1c(C)nnc1CSc1ncnn1C,-,-10.87%
CC(C)N1C(=O)CC(NC(=O)c2cc(Br)c[nH]2)C1=O (centres unmarked),6.684%,-
CC(C)NC(=O)C(C)N1CCNCC1 (centres unmarked),-4.53%,-
CCC(CC)(CN)C(=O)N1CCN(C(=O)N(C)C)CC1,-,-2.938%
CC(C)CCOCCSc1nnnn1C,83.91%,59.81%
COc1ccc(CNC(=O)C(C)(C)C)c(OC)c1OC,11.44%,-
Cc1ncsc1CCN(C)C(=O)c1cnc(O)cn1,-,5.499%
Cc1nnc(SC(C)C(=O)NC2=NCCS2)s1 (centres unmarked),17.11%,-
OCCN1CCN(CCc2ccccc2)CC1,13.07%,-
CN(CC(=O)NCC1CCCO1)CC1CC1 (centres unmarked),-,31.99%
COc1ccc(NC(=O)CCn2ccnc2)cc1,-,10.97%
CCC[C@H]1CN(c2noc(C)n2)C[C@@H]1N,-22.8%,-
COCCn1cc(CNC(=O)NCc2cccs2)cn1,-15.16%,-2.061%
CCCC(C(=O)OCC)n1ccc(N)n1 (centres unmarked),-,12.28%
CC(=O)Nc1cncc(Cl)n1,-,1.837%
O=C1CNc2cccc(F)c2N1,-107.2%,-
Cc1ccc(C(=O)NC2CC(C)(C)NC(C)(C)C2)cn1,-,3.153%
COc1cc(NC(=O)N2CCCC(N)C2)ccc1C (centres unmarked),31.85%,-
Nc1nccnc1C(=O)Nc1ccccn1,-,10.11%
O=S(=O)(N1CCCCC1)N(Cc1cccnc1)C1CC1,-,47.73%
CCC(N)c1cnn(CC)c1 (centres unmarked),65.72%,-
COc1ccc(OC)c(NC(=O)CNC(C)C)c1,-,33.1%

Once more, the final 3:

| SMILES | Mtb cholesterol medium | Mtb glucose medium |
|---|---|---|
| `O=S(=O)(N1CCCCC1)N(Cc1cccnc1)C1CC1` | - | 47.73% |
| `CCC(N)c1cnn(CC)c1` (centres unmarked) | 65.72% | - |
| `COc1ccc(OC)c(NC(=O)CNC(C)C)c1` | - | 33.1% |

From ChEMBL document CHEMBL3988442, “University of Dundee, Small-Polar-MMV Screening Library” (2021).